A mixed list of measured activities; the numbers were collected in NIAID ChemDB.

Shared fields: tests in culture; agent: HIV-1; read by: ELISA; read-out: EC50

ECn is the concentration giving n% inhibition of infection, replication or growth. Blank or dashed fields: not listed here. Lines come from different laboratories, so protocols vary.

compound	mutations	strain	cells	setting	value
Nc1ccn([C@H]2CC[C@@H](CO)O2)c(=O)n1	-	LAV-Bru	CEM13 + CEM	-	<10 µM
COC(=O)c1ccc2ccc(/C=C/c3ccc(O)c(O)c3)nc2c1O	-	-	CEM	-	>9.2 µM
C[C@@H]1O[C@@H](Oc2c(-c3cc(O)c(O)c(O)c3)oc3cc(O)cc(O)c3c2=O)[C@H](O)[C@H](O)[C@H]1O	-	IIIB	C8166	-	100 µg/mL
Cc1cn([C@H]2C[C@H](N=[N+]=[N-])[C@@H](CO)O2)c(=O)[nH]c1=O	-	IIIB	C8166	-	0.008 µM
C[C@H]1CCCC[C@@H]1Oc1cc(CCc2ccccc2)[nH]c(=O)c1I	-	A17	TZM-bl	-	0.117 µM
O=c1c(O)c(-c2ccc(O)c(O)c2)oc2cc(O)cc(O)c12	-	MN	C8166	-	20 µg/mL
C[C@H](Cn1cnc2c(N)ncnc21)OCP(=O)(O)O	-	LAI	MT-2	-	0.68 µM
CCc1c(CC2CCCCC2)nc(SCC(=O)c2ccccc2)[nH]c1=O	-	IIIB	C8166	-	0.0024 µM
Cc1cn([C@H]2C[C@H](N=[N+]=[N-])[C@@H](CO)O2)c(=O)[nH]c1=O	-	-	MT-4	-	0.001 µM
NC(=O)c1cccc(N=O)c1	-	LAV	PBL	-	<1 µM
CCCCCCCCCCCCCC(=O)OC[C@@H](COP(=O)(O)OC[C@@H]1CC[C@H](n2cc(C)c(=O)[nH]c2=O)O1)OC(=O)CCCCCCCCCCCCC	-	IIIB	MT-4	-	<10 µM
Cc1cn([C@H]2C[C@H](N=[N+]=[N-])[C@@H](COP(=O)(Oc3ccc(I)cc3)Oc3ccc(I)cc3)O2)c(=O)[nH]c1=O	-	IIIB	C8166	-	0.16 µM
O=C(/C=C/c1ccc(O)cc1)OC[C@H]1O[C@@H](Oc2c(-c3ccc(O)cc3)oc3cc(O)cc(O)c3c2=O)[C@H](O)[C@@H](O)[C@@H]1O	-	MN	C8166	-	8 µg/mL
Cc1cn([C@H]2C[C@H](N=[N+]=[N-])[C@@H](COP(=O)(Oc3ccccc3)Oc3ccccc3)O2)c(=O)[nH]c1=O	-	IIIB	C8166	-	0.32 µM
C=C(CP(=O)(OCC)OCC)C1CCC2(C(=O)O)CC[C@]3(C)C(CCC4[C@@]5(C)CCC(OC(=O)CC(C)(C)C(=O)O)C(C)(C)C5CC[C@]43C)C12	-	-	CEM	pseudotyped	0.02 µM
Oc1cc(O)c2c(c1)O[C@H](c1ccc(O)c(O)c1)[C@H](O)C2	-	IIIB	C8166	-	2 µg/mL
O=c1[nH]cnc2c1ncn2[C@H]1CC[C@@H](CO)O1	-	689	PBMC	-	3.5 µM
CO[P@](=O)(c1cc(C)cc(/C=C/C#N)c1)c1c(C(N)=O)[nH]c2ccc(Cl)c(F)c12	K103N/Y181C	NL4-3	MT-4	-	0.0028 µM
NS(=O)(=O)c1ccc(Oc2ccc(NC(=O)N[C@@H]3[C@@H]4CCc5c(F)ccc(F)c5[C@@H]43)cc2)cc1	Y181C	IIIB	MT-4 cells	-	0.0053 µM
Cc1cn([C@H]2CC[C@@H](CO)O2)c(=O)[nH]c1=O	-	LAV-Bru	CEM13 + CEM	-	~10 µM
Cc1c(Cc2ccccc2)c(=O)[nH]c(=O)n1COCc1ccccc1	-	-	MT-4	-	20 µM
CCOCn1c(Cc2ccccc2)c(C(C)C)c(=O)[nH]c1=O	-	IIIB	CEM	-	0.03 µM
Nc1nc2c(ncn2[C@H]2CC[C@@H](CO)O2)c(=O)[nH]1	-	LAV-Bru	CEM13 + CEM	-	<10 µM
C[C@@H]1O[C@@H](Oc2c(-c3ccc(O)c(O)c3)oc3cc(O)cc(O)c3c2=O)[C@H](O)[C@H](O)[C@H]1O	-	IIIB	C8166	-	50 µg/mL
Cc1[nH]c(=O)[nH]c(=O)c1COCc1ccccc1	-	-	MT-4	-	>53 µM
CCOCn1c(Cc2ccccc2)c(C(C)C)c(=O)n(C(=O)c2ccc(OP(=O)(OCCSC(=O)C(C)(C)C)OC[C@@H]3C=C[C@H](n4cc(C)c(=O)[nH]c4=O)O3)cc2)c1=O	RT-Y181C	N119 (NNRTI-resistant RT Y181C)	CEM	-	0.3 µM
CC(C)(C)NC(=O)[C@@H]1C[C@@H]2CCCC[C@@H]2CN1C[C@@H](O)[C@H](Cc1ccccc1)NC(=O)[C@H](CC(N)=O)NC(=O)c1ccc2ccccc2n1	-	MN	C8166	-	0.001 µg/mL
Cc1cn([C@H]2C[C@H](N=[N+]=[N-])[C@@H](CO)O2)c(=O)[nH]c1=O	-	-	H9	2 d	<0.01 µg/mL
Oc1cc(O)c2c(c1)O[C@H](c1ccc(O)c(O)c1)[C@@H](O)C2	-	IIIB	C8166	-	4 µg/mL
Cc1c(CBr)c(=O)n(Cc2ccccc2)c(=O)n1Cc1ccccc1	-	-	MT-4	-	26 µM
O=C(O)c1ccc2ccc(CCc3ccc(O)c(O)c3)nc2c1O	-	-	CEM	-	>61 µM
CC(C)CN(C[C@@H](O)[C@H](Cc1ccccc1)NC(=O)O[C@H]1CCOC1)S(=O)(=O)c1ccc(N)cc1	-	IIIB	C8166	-	0.007 µM
CC[C@H](C)C=C(C)/C=C/C1=CC2=C(Cl)C(=O)[C@]3(C)OC(=O)[C@@H](C(C)=O)[C@@H]3C2=CO1	-	-	-	-	6.6 µM
Cc1c(COCc2ccccc2)c(=O)n(Cc2ccccc2)c(=O)n1Cc1ccccc1	-	-	MT-4	-	>53 µM
Cc1cn([C@H]2C[C@H](F)[C@@H](CO)O2)c(=O)[nH]c1=O	-	IIIB	H9	-	0.016 µM
CC(C)COC(=O)N1CC(=O)Nc2ccccc21	-	IIIB	-	-	>100 µM
O=c1c(O)c(-c2ccc(O)cc2)oc2cc(OC3OC(CO)C(O)C(O)C3O)cc(O)c12	-	MN	C8166	-	>250 µg/mL
Cc1cn([C@H]2C[C@H](N=[N+]=[N-])[C@@H](COP(=O)(Oc3ccc([N+](=O)[O-])cc3)Oc3ccc([N+](=O)[O-])cc3)O2)c(=O)[nH]c1=O	-	GB8)/1(IIIB	JM	-	10 µM

The last 2 rows once more:

compound	mutations	strain	cells	setting	value
O=c1c(O)c(-c2ccc(O)cc2)oc2cc(OC3OC(CO)C(O)C(O)C3O)cc(O)c12	-	MN	C8166	-	>250 µg/mL
Cc1cn([C@H]2C[C@H](N=[N+]=[N-])[C@@H](COP(=O)(Oc3ccc([N+](=O)[O-])cc3)Oc3ccc([N+](=O)[O-])cc3)O2)c(=O)[nH]c1=O	-	GB8)/1(IIIB	JM	-	10 µM